Only a part is listed here, and it is no random draw. The source made the active and inactive calls. Cut-off read from the data, not from the text of the source: active = inhibition above about 8.5%; inactive = the rest.

The results in this text go back to PubChem BioAssay AID624416 (The Scripps Research Institute Molecular Screening Center, 2012).

The assay has as its system HIV-1 gp120 / PG9 antibody interaction. Description: binders of HIV-1 gp120 antibody PG9, primary screen, biochemical, TR-FRET (AID 624416). The note with it: TR-FRET gp120-PG9 antibody binding; at 6.7 µM; hits give high values. For orientation: In TR-FRET formats the signal depends on donor and acceptor labels being close together.
In general, inhibition refers to the change of the read-out against control, counted positive when it falls. For `CP(=O)(Nc1ccccn1)Oc1ccc(Cl)cc1` (stereo unspecified), the inhibition is inactive: -0.28%.

For `O=[N+]([O-])c1cc([N+](=O)[O-])c(O)c([N+](=O)[O-])c1.c1ccc(Oc2ccncc2)cc1`, the inhibition is inactive: -1.37%. The figure for `CCOC(=O)c1ccc(NP(C)(=O)Oc2ccc(OC)cc2)cc1` (stereo unspecified) is inactive: -1.13%.

Turning to `CCOP(C)(=S)SCC(=O)NC(C)C(=O)O` (stereo unspecified), the inhibition is inactive: 0.3%. The figure for `Cc1cc(C)cc(OP(C)(=O)Nc2ccc(SC(F)(F)F)cc2)c1` (stereo unspecified) is inactive: 0.27%. For the compound `CCc1ccc(OP(C)(=O)N2CCN(c3ccc([N+](=O)[O-])cc3)CC2)cc1` (stereo unspecified), the inhibition was inactive: -0.71%.

Turning to `CP(=O)(NC(=O)Nc1ccccc1)Oc1ccccc1` (stereo unspecified), the inhibition was inactive: -1.15%. The figure for `CP(=O)(Oc1ccccc1)OC(c1ccccc1)C(F)(F)F` (stereo unspecified) is inactive: -0.8%; for `CP(=O)(Nc1ccc(SC(F)(F)F)cc1)Oc1ccc(Cl)cc1` (stereo unspecified) it is inactive: 0.15%. In the case of `Cc1cccc(C)c1OP(C)(=O)Nc1ccc(SC(F)(F)F)cc1` (stereo unspecified) it was inactive: 0.33%; in that of `CP(=O)(Nc1ccccc1Br)Oc1ccccc1` (stereo unspecified), inactive: -0.3%. Turning to `COc1ccccc1OP(C)(=O)Nc1ccccc1` (stereo unspecified), the inhibition is inactive: -0.29%. The figure for `CP(=S)(Nn1cnnc1)Oc1ccccc1` (stereo unspecified) is inactive: -1.07%; for `Cc1cc(C)cc(OP(C)(N)=O)c1` (stereo unspecified) it is inactive: 0.38%; for `COc1ccc(OP(C)(=O)Nc2cccc(F)c2)cc1` (stereo unspecified) it is inactive: -1.09%.

Consider `COc1ccccc1OP(C)(=O)Nc1cc(Cl)ccc1C` (stereo unspecified), for which the inhibition was inactive: -0.48%.

For `Cc1ccc(NP(C)(=O)Oc2ccccc2)c(C)c1` (stereo unspecified), the inhibition was inactive: 0.77%.

For the compound `COc1ccccc1OP(C)(=O)Nc1ccc(C)cc1` (stereo unspecified), the inhibition is inactive: 0.29%. The figure for `CCOC(=O)c1ccc(NP(C)(=O)Oc2ccccc2)cc1` (stereo unspecified) is inactive: -0.53%; for `O=[N+]([O-])c1ccc2c(c1)C=Nc1ccccc1O2` it is inactive: -3.89%. In the case of `Cc1cccc(C)c1OP(C)(N)=O` (stereo unspecified) it was inactive: 0.7%. In the case of `CC(C)(C)c1ccc(OP(C)(=O)Nc2ccc(SC(F)(F)F)cc2)cc1` (stereo unspecified) it was inactive: 1.9%; in that of `O=[N+]([O-])c1cc([N+](=O)[O-])c(Nc2cccnc2)c([N+](=O)[O-])c1`, inactive: 1.25%; in that of `COc1ccccc1-c1ccccn1.O=[N+]([O-])c1cc([N+](=O)[O-])c(O)c([N+](=O)[O-])c1`, inactive: -1.5%.

Turning to `CCN(CC)CCCOC(=O)C(O)(c1ccccc1)c1ccccc1`, the inhibition was inactive: -2.51%. The figure for `Cc1ccc(C)c(NP(C)(=O)Oc2ccccc2)c1` (stereo unspecified) is inactive: 0.36%; for `CP(=O)(Nc1cccc(Br)c1)Oc1ccccc1` (stereo unspecified) it is inactive: -0.91%; for `Cc1cc(C)cc(OP(C)(=O)Nc2ccccn2)c1` (stereo unspecified) it is inactive: -0.56%. In the case of `CCOC(=O)c1ccc(NP(C)(=O)Oc2cc(C)cc(C)c2)cc1` (stereo unspecified) it was inactive: -2.46%. In the case of `Cc1cc(C)cc(OP(C)(=O)Nc2ccc(C)cc2C)c1` (stereo unspecified), the inhibition is inactive: -0.28%. In the case of `COc1ccccc1OP(C)(=O)Nc1cccc(Br)c1` (stereo unspecified), the inhibition is inactive: 1.46%. As to `CC1=NCCc2c1[nH]c1ccccc21.O=[N+]([O-])c1cc([N+](=O)[O-])c(O)c([N+](=O)[O-])c1`, the inhibition is inactive: -3.32%.

On to `O=C(O)c1cccc(Nc2c([N+](=O)[O-])cc([N+](=O)[O-])cc2[N+](=O)[O-])c1`, for which the inhibition was inactive: 0.53%. In the case of `COc1ccc(-c2ccccn2)cc1.O=[N+]([O-])c1cc([N+](=O)[O-])c(O)c([N+](=O)[O-])c1` it was inactive: -0.12%; in that of `CP(=O)(Nc1ccc(SC(F)(F)F)cc1)Oc1ccccc1` (stereo unspecified), inactive: 1.31%; in that of `CCCOc1ccc(NP(C)(=O)Oc2ccc(Cl)cc2)cc1` (stereo unspecified), inactive: -0.52%.

On to `CN1CCCCC1COC(=O)C1(O)c2ccccc2CCc2ccccc21` (stereo unspecified), for which the inhibition was inactive: -0.39%. The figure for `COc1ccccc1OP(C)(=O)Nc1c(C)cccc1C` (stereo unspecified) is inactive: 0.15%; for `CCOC(=O)C(CC)C1=NC(C)(C)Cc2ccccc21.O=[N+]([O-])c1cc([N+](=O)[O-])c(O)c([N+](=O)[O-])c1` (stereo unspecified) it is inactive: -1.17%; for `O=[N+]([O-])c1cc([N+](=O)[O-])c(Nc2nnnn2CCO)c([N+](=O)[O-])c1` it is inactive: -1.18%. Turning to `Cc1nc2ccc3ccccc3c2s1.O=[N+]([O-])c1cc([N+](=O)[O-])c(O)c([N+](=O)[O-])c1`, the inhibition was inactive: -1.14%. The figure for `O=[N+]([O-])c1cc([N+](=O)[O-])c(-c2cnn(-c3ccccc3)c2)c([N+](=O)[O-])c1` is inactive: -1.03%; for `CN(Cc1cccnc1)C(=O)COc1ccc(Cl)c(Cl)c1.O=[N+]([O-])c1cc([N+](=O)[O-])c(O)c([N+](=O)[O-])c1` it is inactive: 0.18%; for `O=[N+]([O-])c1cc([N+](=O)[O-])c(-n2nnc3ccccc32)c([N+](=O)[O-])c1` it is inactive: -0.63%. The figure for `Cc1ccccc1NP(C)(=O)Nc1ccccc1C` is inactive: -0.19%; for `O=[N+]([O-])c1cc([N+](=O)[O-])c(C(F)(F)F)c([N+](=O)[O-])c1O` it is inactive: -0.97%.

For `CP(=O)(Nc1ccc2c(c1)OCCO2)Oc1ccccc1` (stereo unspecified), the inhibition was inactive: 0.28%.

Consider `CCOP(C)(=S)SCC(=O)NC(C)(CC)C(=O)O` (stereo unspecified), for which the inhibition was inactive: 0.92%. As to `CCOP(=O)(CC)OCC`, the inhibition was inactive: -0.81%. In the case of `CP(=O)(Nc1ccc(SC(F)(F)F)cc1)Oc1ccc(F)cc1` (stereo unspecified) it was inactive: -1.69%; in that of `Cc1c(C(c2ccc3c(c2)OCO3)c2c(C)n(C)n(-c3ccccc3)c2=O)c(=O)n(-c2ccccc2)n1C.O=[N+]([O-])c1cc([N+](=O)[O-])c(O)c([N+](=O)[O-])c1`, inactive: 0.28%; in that of `O=[N+]([O-])c1ccc(OP2(=O)COCCO2)cc1` (stereo unspecified), inactive: -0.39%. In the case of `Cc1cc(-c2cccc3ccccc23)c(C)cn1.O=[N+]([O-])c1cc([N+](=O)[O-])c(O)c([N+](=O)[O-])c1` it was inactive: -0.81%; in that of `O=[N+]([O-])c1cc([N+](=O)[O-])c(NCC2CCS(=O)(=O)C2)c([N+](=O)[O-])c1` (stereo unspecified), inactive: -0.25%; in that of `CN(C)CCOC(=O)C(O)(c1ccccc1)C1CCCCC1` (stereo unspecified), inactive: 4.37%. The figure for `COc1ccc(NP(C)(=O)Oc2ccccc2OC)cc1` (stereo unspecified) is inactive: -0.43%.
